PSTVd stem 15 mutant pool in Nicotiana benthamiana

Region: stem 15 of PSTVd (intermediate strain), upper and lower strand joined, each 5' to 3', the first 9 letters being the upper strand. Wild type: CUGGAGCGAUCGCUUCGG. Varied positions (N): CUGGAGCGAUNGNNUNNG.

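A pool of all variants was put on leaves of three Nicotiana benthamiana plants. Progeny were sequenced from the inoculated region (day 5), the margin of the inoculated leaf (day 10) and systemic leaves (day 12).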

Values are reads per thousand in the sample; higher means more abundant, 0 means not found.
Each value is the mean of three plants.
"Pool" is the share in the plasmid pool used as inoculum, on the same scale.
The inoculated region was read from the minus strand, the other sites from the plus strand.
Samples held 36,693 to 63,082 reads, so the smallest values rest on one or two reads.

CUGGAGCGAUCGUAUGCG (pool 0.937): inoculated region 0.279; leaf margin 0.0645; systemic leaves 0.
CUGGGGCGAUCGAAUGAG (pool 0.0162): inoculated region 0; leaf margin 0; systemic leaves 0.
CUGGAGCGAUAGAAUCAG (pool 0.921): inoculated region 0.326; leaf margin 0.0807; systemic leaves 0.
CUGUAGCGAUAGGAUCGG (pool 0.0162): inoculated region 0; leaf margin 0; systemic leaves 0.
CUGGAGCGAUCGGGUUCG (pool 0.711): inoculated region 0.211; leaf margin 0.0213; systemic leaves 0.
CUGGAGCGAUGGGGUAGG (pool 0.873): inoculated region 0.219; leaf margin 0.0814; systemic leaves 0.
CUGGAGCGAUCGAGUUGG (pool 0.840): inoculated region 0.216; leaf margin 0.0425; systemic leaves 0.
AUGGAGCGAUUGUUUUUG (pool 0.0162): inoculated region 0.0200; leaf margin 0.0122; systemic leaves 0.00739.
CUGGAGCGAUGGUGUAGG (pool 0.954): inoculated region 0.285; leaf margin 0.0572; systemic leaves 0.
CUGGAGCGAUGGCGUAGG (pool 0.840): inoculated region 0.266; leaf margin 0.0839; systemic leaves 0.
CUGGAGCGAUCGCUUUAG (pool 1.79): inoculated region 1.36; leaf margin 0.0394; systemic leaves 0.0133.
CUGGAGCGAUUGCUUCUG (pool 0.873): inoculated region 0.263; leaf margin 0.0367; systemic leaves 0.
CUGGAGCGAUAGGCUCCG (pool 1.03): inoculated region 0.289; leaf margin 0.0654; systemic leaves 0.
CUGGAGCGAUGGAUUAAG (pool 0.711): inoculated region 0.271; leaf margin 0.0191; systemic leaves 0.
CUGGAGCGAUGGAGUCCG (pool 1.42): inoculated region 1.21; leaf margin 0.0440; systemic leaves 0.0140.
CUGGAGCGAUCGCAUCAG (pool 0.921): inoculated region 0.226; leaf margin 0.0287; systemic leaves 0.
CUGGAGCGAUAGCCUCGG (pool 1.03): inoculated region 0.407; leaf margin 0.0510; systemic leaves 0.
CUGGAGCGAUGGUUUUUG (pool 0.792): inoculated region 0.263; leaf margin 0.0318; systemic leaves 0.
CUGGAGCGAUCGAGUAAG (pool 0.792): inoculated region 0.291; leaf margin 0.0440; systemic leaves 0.
CUGGAGCGAUAGCUUUGG (pool 0.679): inoculated region 0.281; leaf margin 0.0516; systemic leaves 0.
CUGGAGCGAUCGACUAAG (pool 1.05): inoculated region 0.557; leaf margin 0.0235; systemic leaves 0.
CUGGAGCGAUGGAUUGAG (pool 0.840): inoculated region 0.307; leaf margin 0.0320; systemic leaves 0.

For reference, wild type rose from 10.2 per thousand in the pool to 285, 367, 312 (inoculated region), 785, 865, 782 (leaf margin) and 854, 898, 915 (systemic leaves).
Sequences that differ at fixed positions probably stem from PCR or sequencing errors, and defective variants can be carried along by functional ones.

From the data files of Wu et al. 2024, doi:10.1371/journal.ppat.1012142.